Anti-infective test results gathered from many reports (values: NIAID ChemDB through PubChem).

Common to all: tests in culture; species: HIV-1; read-out: EC50

Blank or dashed fields: not listed here. Two numbers with a dash give a range or band. ECn is the concentration giving n% inhibition of infection, replication or growth. Lines come from different laboratories, so protocols vary.

SMILES | cell line | conditions | method | changes | strain or isolate | value
COc1cc(C)cc2c(-c3cccc([N+](=O)[O-])c3)cc(-c3cc(-c4cccc([N+](=O)[O-])c4)c4cc(C)cc(OC)c4c3O)c(O)c12 | CEM + CEM-SS | - | cytopathic effect | - | RF | >100 µM
CC(C)OC(=O)C[C@H](N[P@](=O)(CO[C@H](C)Cn1cnc2c(N)ncnc21)NC(C)(C)C(=O)OC(C)C)C(C)C | MT4-GFP | 10% human serum | fluorescence | - | - | 590 µM
C=CCOCn1c(Cc2ccccc2)c(CO)c(=O)[nH]c1=O | MT-4 | - | MTT | Y181C | Clinical isolates | >100 µM
Nc1ncnc2c1ncn2[C@H]1C[C@@H](CO)O1 | MT-4 | - | plaque count | - | - | 0.25 µg/mL
CCCCCC(O)/C=C/C=C\CCCCCC[C@@]1(O)C[C@H](C(=O)OC)[C@H](C(C)=O)O1 | C8166 | - | cytopathic effect / syncytia | - | IIIB | 0.08 µM
COc1cc(OC)c2c(O)c(-c3cc(-c4ccc5c(c4)OCO5)c4cc(OC)cc(OC)c4c3O)cc(-c3ccc4c(c3)OCO4)c2c1 | CEM + CEM-SS | - | cytopathic effect | - | RF | >100 µM
O=c1ccn([C@H]2C=C[C@@H](CO)O2)c(=O)n1CCCCN1CCN(CCNC(=S)Nc2ccc(Br)cn2)CC1 | CEM + CEM-SS | - | RT activity | - | IIIB | >100 µM
CCCOCn1c(C(F)c2cccc(C#N)c2)c(CC)c(=O)[nH]c1=O | MT-4 | - | MTT | EFV | IIIB | >100 µM
CC(=O)N[C@@H]1CCN(c2cc(C)nn3c(-c4ccco4)c(C)nc23)C1 | H9 | - | p24 | - | - | 0.9 µM
CCc1c(Cc2cc(C)cc(C)c2)n(Cc2ccc(C#CCF)cc2)c(=O)[nH]c1=O | MT-4 | - | MTT | - | - | 0.02 µM
Nc1ccn([C@H]2S[C@@H](CO)C=C2F)c(=O)n1 | PBMC | - | RT activity | - | BRU | <5 µM
CC(C)(CNC(=O)C(C)(C)C)NC(=O)[C@@H]1CCCN1C(=O)[C@@H](O)[C@H](Cc1ccccc1)NC(=O)[C@H](CC(N)=O)NC(=O)OCc1ccccc1 | - | - | - | - | - | >100 µg/mL
COC(=O)c1c(C(=O)OC)c(Cc2ccccc2)n(C)c1C | PBL | - | p24 / ELISA | - | IIIB | >10 µM
CC(C)(C)NC(=O)[C@@H]1C[C@H](O)CN1C(=O)[C@@H](O)[C@H](Cc1ccccc1)NC(=O)[C@H](CC(N)=O)NC(=O)OCc1ccccc1 | MT-4 | - | antigen | - | - | 4.5–6 µg/mL
CC(C)OC(=O)C[C@H](N[P@@](=O)(CO[C@H](C)Cn1cnc2c(N)ncnc21)NC(C)(C)C(=O)OC(C)C)C(C)C | MT4-GFP | 50% human serum | fluorescence | - | - | 12 µM
CC(C)(C)NC(=O)[C@@H]1CCCN1C(=O)[C@@H](O)[C@H](Cc1ccccc1)NC(=O)[C@H](CC(N)=O)NC(=O)COc1ccccc1[N+](=O)[O-] | MT-4 | - | antigen | - | - | 6 µg/mL
CCn1c(C)c(C(=O)NC)c(C(=O)NC)c1Cc1ccccc1 | PBL | - | p24 / ELISA | - | IIIB | >10 µM
CC(=O)N[C@@H]1CCN(c2cc(C)nn3c(-c4ccc5cc[nH]c5c4)c(C)nc23)C1 | H9 | - | p24 | - | - | 0.7 µM
Cc1cc(S(N)(=O)=O)ccc1NC(=O)COc1ccc(Cl)cc1C(=O)c1cc(F)cc(C(F)(F)F)c1 | MT-4 | - | - | - | IIIB | 0.0005 µM
CC(C)CCC[C@@H](C)[C@H]1CC[C@H]2[C@@H]3CC[C@H]4C[C@@H](CCC=C(c5cc(Cl)c(O)c(C(=O)O)c5)c5cc(Cl)c(O)c(C(=O)O)c5)CC[C@]4(C)[C@H]3CC[C@]12C | HuT-78 + HUT 78 | - | syncytia | - | IIIB | 25 µg/mL
CCn1c(C)c(C(=O)OC)c(C(=O)OC)c1Cc1ccccc1 | MT-4 | - | cytopathic effect / MTT | RT-K103N Y181C | A17 | >10 µM
CC(C)OC(=O)[C@H](C)CNP(=O)(CO[C@H](C)Cn1cnc2c(N)ncnc21)N[C@H](C)C(=O)OC(C)C | MT4-GFP | 10% human serum | fluorescence | - | - | 435 µM
COC(=O)c1cn2c(c1C(=O)OC)Cc1cc3c(cc1C2)OCO3 | PBL | - | p24 / ELISA | - | IIIB | >10 µM
CCCCCOC(=O)C(C)(C)NP(=O)(CO[C@H](C)Cn1cnc2c(N)ncnc21)N[C@H](C)CC(=O)OC(C)C | MT4-GFP | 10% human serum | fluorescence | - | - | 1.5 µM
CCc1c(Cc2cc(C)cc(C)c2)n(COCCF)c(=O)[nH]c1=O | MT-4 | - | MTT | EFV:K103R+V179D+P225H | IIIB | 20 µM
C=C1C(=O)O[C@@H](CCCCCCCCCCCCCC(C)=O)[C@H]1C(=O)O | C8166 | - | cytopathic effect / syncytia | - | IIIB | 0.23 µM
COc1cccc2c(-c3cccs3)cc(-c3cc(-c4cccs4)c4cccc(OC)c4c3O)c(O)c12 | CEM + CEM-SS | - | cytopathic effect | - | RF | >100 µM
C=C(C)COCn1c(Cc2ccccc2)c(CO)c(=O)[nH]c1=O | MT-4 | - | MTT | EFV:K103R+V179D+P225H | IIIB | >20 µM
COc1ccc(-n2c(C)nc3c(N4CC[C@@H](NC(C)=O)C4)nc(C)nc32)cc1OC | H9 | - | p24 | - | - | >100 µM
Cc1cn([C@H]2C[C@H](N=[N+]=[N-])[C@@H](CO)O2)c(=O)[nH]c1=O | C8166 | - | syncytia | - | IIIB | 0.0024 µg/mL
Nc1ncnc2c1ncn2[C@@H]1O[C@H](CO)[C@H]1CO | MT-4 | - | plaque count | - | - | 4.3 µg/mL
COc1cccc2c(-c3ccc4c(c3)OCO4)cc(-c3cc(-c4ccc5c(c4)OCO5)c4cccc(OC)c4c3O)c(O)c12 | CEM + CEM-SS | - | cytopathic effect | - | RF | >100 µM
CC1=CC(=O)O[C@@H]1[C@@]1(C)C[C@H]2OC(=O)CC3C(C)C(=O)C(O)=C1[C@]32CO | H9 | - | p24 / ELISA | - | IIIB | 28 µM
CCn1c(C)c(C(=O)N(C)C)c(C(=O)N(C)C)c1Cc1ccccc1 | PBL | - | p24 / ELISA | - | IIIB | >10 µM
C=CCOCn1c(C(F)c2cccc(C#N)c2)c(CC)c(=O)[nH]c1=O | MT-4 | - | MTT | EFV | IIIB | >100 µM
Cc1cn([C@H]2C=C[C@@H](CO)O2)c(=O)n(CCOCCN2CCN(CCNC(=S)Nc3ccc(Br)cn3)CC2)c1=O | CEM + CEM-SS | - | RT activity | - | IIIB | 67 µM
COc1cccc(-c2c(C)nc3c(N4CC[C@@H](NC(C)=O)C4)cc(Cl)nn23)c1 | H9 | - | p24 | - | - | >100 µM
CC(C)OC(=O)[C@H](C)NP(=O)(CO[C@H](C)Cn1cnc2c(N)ncnc21)NC[C@H](C)C(=O)OC(C)C | MT4-GFP | 10% human serum | fluorescence | - | - | 20 µM
CCOCn1c(C(=O)c2cccc(C#N)c2)c(CC)c(OC)nc1=O | MT-4 | - | MTT | EFV | IIIB | >100 µM
Nc1ccn([C@@H]2O[C@H](CO)C[C@@H]2F)c(=O)n1 | CEM | - | p24 | - | - | 4 µM
COC(=O)C(=O)N1CCC[C@H]1C(=O)N[C@@H](Cc1ccccc1)C(=O)Nc1cccc(OCC(=O)N[C@@H](CC(N)=O)C(=O)N[C@@H](Cc2ccccc2)[C@H](O)C(=O)N2CCC[C@H]2C(=O)NC(C)(C)C)c1 | - | - | - | - | - | 100 µg/mL
CCOC(=O)c1c(C)c(C(=O)OCC)n(C)c1C | PBL | - | p24 / ELISA | - | IIIB | >10 µM
COc1cccc2c(-c3cccc(N)c3)cc(-c3cc(-c4cccc(N)c4)c4cccc(OC)c4c3O)c(O)c12 | CEM + CEM-SS | - | cytopathic effect | - | RF | >100 µM
CCC(=O)c1cn(S(=O)(=O)c2cccc([N+](=O)[O-])c2)c2cc(C)ccc12 | C8166 | - | syncytia / visual reading | - | IIIB | 1.2 µg/mL
O=c1ccn([C@H]2C=C[C@@H](CO)O2)c(=O)n1CCCN1CCN(CCNC(=S)Nc2ccc(Br)cn2)CC1 | CEM + CEM-SS | - | RT activity | - | IIIB | >100 µM
Cc1ccc(C)n1-c1ccc(C(=O)O)c(O)c1 | MT-2 | - | p24 | - | IIIB | 1.1 µM
O=C(OC1[C@H](OC(=O)c2cc(O)c(O)c(O)c2)CC(OC(=O)c2cc(O)c(O)c(O)c2)(C(=O)O)C[C@H]1OC(=O)c1cc(O)c(O)c(O)c1)c1cc(O)c(O)c(O)c1 | CEM + CEM-SS | - | XTT | - | RF | ~0.5 µM
CCO/N=C(\c1ccc(Br)cc1)C1CCN(C2(C)CCN(C(=O)c3c(C)cc[n+]([O-])c3C)CC2)CC1 | U87 (CD4+ CCR5+) + U87 | - | luciferase / entry | - | JR-FL | 0.018 µM
CCC(=O)c1cn(S(=O)(=O)c2ccc(Cl)cc2)c2cc(C)ccc12 | C8166 | - | syncytia / visual reading | - | IIIB | 83.9 µg/mL
COC(=O)C(=O)N1CCC[C@H]1C(=O)N[C@H](Cc1ccccc1)C(=O)N[C@@H](CC(N)=O)C(=O)N[C@@H](Cc1ccccc1)[C@H](O)C(=O)N1CCC[C@H]1C(=O)NC(C)(C)C | MT-4 | - | antigen | - | - | >100 µg/mL
CCc1c(Cc2cc(C)cc(C)c2)n(Cc2ccc(C#CCO)cc2)c(=O)[nH]c1=O | MT-4 | - | MTT | EFV:K103R+V179D+P225H | IIIB | >2 µM
COc1cc(C)cc2c(-c3cccc(N)c3)cc(-c3cc(-c4cccc(N)c4)c4cc(C)cc(OC)c4c3O)c(O)c12 | CEM + CEM-SS | - | cytopathic effect | - | RF | >100 µM
CC(=O)N[C@@H]1CCN(c2cc(Cl)nn3c(-c4ccc(F)cc4)c(C)nc23)C1 | H9 | - | p24 | - | - | >100 µM
COc1cc(/C=C/C#N)cc(OC)c1-c1cccc2c(N)nc(Nc3ccc(C#N)cc3)nc12 | MT-4 | - | cytopathic effect / luminescence | K103N | HXB2 | 0.0015 µM
CCCCCCOC(=O)C(C)(C)NP(=O)(CO[C@H](C)Cn1cnc2c(N)ncnc21)N[C@@H](CC(=O)OC(C)C)C(C)C | MT4-GFP | 10% human serum | fluorescence | - | - | 19.1 µM
CSc1ccc(-c2c(C)nc3c(N4CC[C@@H](NC(C)=O)C4)cc(C)nn23)cc1 | H9 | - | p24 | - | - | 0.2 µM
Cc1cn([C@H]2C=C[C@@H](CO)O2)c(=O)n(CCCCN2CCN(CCNC(=S)Nc3ccc(Br)cn3)CC2)c1=O | CEM + CEM-SS | - | RT activity | - | IIIB | 19 µM
COC(=O)C(=O)N1CCC[C@H]1C(=O)N[C@H](Cc1ccccc1)C(=O)N[C@H](C)C(=O)Nc1ccc(OCC(=O)N[C@@H](CC(N)=O)C(=O)N[C@@H](Cc2ccccc2)[C@H](O)C(=O)N2CCC[C@H]2C(=O)NC(C)(C)C)cc1 | - | - | - | - | - | >100 µg/mL
O=c1ccn([C@H]2C=C[C@@H](CO)O2)c(=O)n1CC#CCN1CCN(CCNC(=S)Nc2ccc(Br)cn2)CC1 | CEM + CEM-SS | - | RT activity | - | IIIB | >73 µM
CCC(=O)c1cn(S(=O)(=O)c2ccc(OC)cc2)c2cc(C)ccc12 | C8166 | - | syncytia / visual reading | - | IIIB | 65 µg/mL
Nc1ccn([C@@H]2O[C@H](CO)C=C2F)c(=O)n1 | CEM | - | p24 | - | - | 15–48 µM

A second listing of 4 rows from above:

| SMILES | cell line | conditions | method | changes | strain or isolate | value |
|---|---|---|---|---|---|---|
| CC(C)(C)NC(=O)[C@@H]1CCCN1C(=O)[C@@H](O)[C@H](Cc1ccccc1)NC(=O)[C@H](CC(N)=O)NC(=O)COc1ccccc1[N+](=O)[O-] | MT-4 | - | antigen | - | - | 6 µg/mL |
| CCCOCn1c(C(F)c2cccc(C#N)c2)c(CC)c(=O)[nH]c1=O | MT-4 | - | MTT | EFV | IIIB | >100 µM |
| COC(=O)C(=O)N1CCC[C@H]1C(=O)N[C@@H](Cc1ccccc1)C(=O)Nc1cccc(OCC(=O)N[C@@H](CC(N)=O)C(=O)N[C@@H](Cc2ccccc2)[C@H](O)C(=O)N2CCC[C@H]2C(=O)NC(C)(C)C)c1 | - | - | - | - | - | 100 µg/mL |
| Nc1ccn([C@H]2S[C@@H](CO)C=C2F)c(=O)n1 | PBMC | - | RT activity | - | BRU | <5 µM |